## HIV-1 1203 Vif substitutions under APOBEC3G selection

Vif of 1203 (a subtype B primary isolate), residues 12-115; positions count from the first residue of the whole protein:
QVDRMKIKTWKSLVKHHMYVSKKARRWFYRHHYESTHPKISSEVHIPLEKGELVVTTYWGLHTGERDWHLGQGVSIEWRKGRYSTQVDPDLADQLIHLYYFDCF

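A pool of vif mutants was passaged twice, 72 h each, on SupT1 cells that express APOBEC3G. Frequencies after the second round, in three biological replicates, were compared with the merged pool after the first round. Changes do not touch integrase, since the pol overlap was removed.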

Scale: log2 enrichment, wild type = 0; negative values mean that the variant was depleted.
A change reads original residue, position, new residue.
This list holds changes to glutamate only.
The median of three replicates is given, with the replicates in brackets.
Input reads are the counts in the merged round-one pool, before selection.
The authors note that some positive scores may be noise, and some enriched variants failed when tested singly.

With Q12E (input reads 214) the assay gave -0.72 (0.66 / -2.68 / -0.72). With R15E (input reads 582) the assay gave -1.82 (-1.82 / -2.48 / -1.08). For K17E (input reads 849) the result was 0.56 (0.81 / 0.56 / 0.46). For K19E (input reads 584) the result was -2.53 (-2.53 / -3.22 / -1.26). T20E (input reads 415) gave -2.65 (-2.65 / -2.88 / -2.63). L24E (input reads 51) gave -0.26 (-0.38 / 5.32 / -0.26).

V25E (input reads 610) gave -2.07 (-2.42 / -2.07 / -1.74). K26E (input reads 18) gave -0.30 (-0.47 / -0.30 / 1.21). H28E (input reads 32) read 0.30 (0.30 / 5.04 / -0.23). For Y30E (input reads 601) the result was -1.65 (-1.65 / -2.53 / 0.74). K33E (input reads 66) read -0.73 (-0.73 / 0.83 / -0.90). With K34E (input reads 728) the assay gave -1.36 (-1.25 / -2.27 / -1.36).

W38E (input reads 251) gave -0.87 (-0.08 / -1.88 / -0.87). H42E (input reads 157) read -1.87 (-3.11 / -1.30 / -1.87). For H43E (input reads 410) the result was -0.22 (-0.22 / -0.37 / 4.95). For I57E (input reads 189) the result was -2.42 (-1.90 / -2.52 / -2.42). For K61E (input reads 19) the result was -1.12 (-2.87 / -1.12 / 1.39). V65E (input reads 114) gave -2.45 (-2.61 / -2.45 / -1.69).

For V66E (input reads 77) the result was -2.55 (-2.55 / -2.39 / -4.32). For T67E (input reads 571) the result was -2.46 (1.20 / -2.46 / -3.11). For T68E (input reads 34) the result was 0.04 (0.04 / -0.70 / 4.70). T74E (input reads 285) gave -3.07 (-3.91 / -3.07 / -1.88). For R77E (input reads 176) the result was -3.05 (-3.73 / -3.05 / -1.58). With Q83E (input reads 81) the assay gave -0.15 (3.90 / -1.07 / -0.15).

G84E (input reads 17) gave -2.17 (-2.70 / 0.24 / -2.17). For V85E (input reads 270) the result was -1.77 (-2.15 / -1.45 / -1.77). W89E (input reads 1217) gave -2.07 (-2.07 / -2.32 / 0.35). K91E (input reads 209) read -2.68 (-0.71 / -2.68 / -3.44). For G92E (input reads 543) the result was -1.69 (-1.69 / -2.33 / -1.05). D99E (input reads 34) read 1.07 (3.39 / -0.14 / 1.07).

For D101E (input reads 32) the result was -0.21 (-0.07 / -0.86 / -0.21). With A103E (input reads 168) the assay gave -3.03 (-1.60 / -3.03 / -3.12). D104E (input reads 24) gave 0.72 (0.72 / -3.03 / 0.83). F112E (input reads 734) read -1.55 (0.85 / -1.90 / -1.55). D113E (input reads 51) gave -0.95 (-4.31 / -0.95 / -0.92). C114E (input reads 1003) read 0.56 (0.56 / 0.61 / 0.23).

3 of these entries, quoted again:

change,input reads,median score
V25E,610,-2.07 (-2.42 / -2.07 / -1.74)
D99E,34,1.07 (3.39 / -0.14 / 1.07)
G92E,543,-1.69 (-1.69 / -2.33 / -1.05)

Some changes are missing from the data or left out.
The scan is noisy: the rank correlation of replicates is about 0.4 to 0.65, and variants with under about 50 input reads tend to read too high.

The measurements come from Langley et al. 2025, preprint (doi:10.1101/2025.10.20.683452).